# Laboratory results: PubChem BioAssay AID624099 (ICCB-Longwood, 2012)
# Aim: 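Host factors E2 relies on to silence an HPV18 LCR reporter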 (primary screen)
# Cell system: human C33A cervical carcinoma cells (HPV-negative) stably expressing BPV1 E2 and an HPV18 LCR luciferase reporter
# Reagents: siRNA pool against human genes, 40 nM
# Timing: 72 h
# Measurement: 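Per-well luciferase luminescence, z-scored on each plate against the plate mean and SD with control wells left out, then averaged across three replicate plates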
# Scale: mean z-score and z-score: higher = stronger reporter signal, weaker E2 silencing
# Active means: 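Hit if mean z-score reaches 2 and two or more of three replicate z-scores also reach 2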
# This is a random part of about 21,000 reagents tested. Over the whole deposit, 497 (2.4%) are marked active. 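Higher z means weaker E2 silencing; only reporter increases were scored, and knock-downs that hurt cell survival may mask genuine repressor factors.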 Entries without a mark were called inactive. Reagents against one gene are numbered here.
mean z-score,"z-score, replicate A","z-score, replicate B","z-score, replicate C",gene symbol,pool no.
0.4,0.1,0.62,0.49,SHROOM3,1
0.66,0.87,0.56,0.54,OR2AK2,1
-1.04,-1,-1.28,-0.83,DENND1C,1
-0.68,-0.85,-0.44,-0.73,RNF180,1
2.53 (active),2.61,2.26,2.72,TBC1D3B,1
-0.83,-0.32,-1.07,-1.09,LOC388716 (retired record),1
0.49,0.3,0.27,0.89,PATL2,1
0.58,0.19,0.69,0.84,CRHBP,1
-0.89,-1.45,-0.61,-0.61,SNAI1,1
0.01,0,-0.03,0.05,PTGES,1
0.44,0.4,0.71,0.19,C1orf52,1
-0.55,-0.62,-0.18,-0.85,EMP2P1,1
0.65,0.67,0.76,0.52,SEPSECS-DT,1
-0.4,-0.16,-0.34,-0.69,ALDH1L1,1
0.64,0.58,0.65,0.7,SKIL,1
-0.48,-0.91,-0.26,-0.25,C11orf65,1
-0.06,-0.08,-0.03,-0.08,KRTAP3-1,1
-0.65,-0.63,-0.91,-0.42,SLC35B3,1
0.87,0.93,0.88,0.81,RAP1GAP2,1
0.67,0.74,0.77,0.49,TMEM129,1
-0.08,-0.12,-0.2,0.08,KRTAP6-3,1
-0.03,-0.07,0.05,-0.06,LOC285544 (retired record),1
0.29,0.15,0.44,0.29,RNPS1,1
0.1,0.4,0.13,-0.24,USF1,1
1.98,1.97,1.87,2.08,CLDN10,1
-0.49,-1.19,-0.22,-0.07,RASSF5,1
0.95,0.99,0.82,1.05,SUCLG1,1
1,0.83,1.03,1.14,CXCL13,1

Single entries from the list:
Result of RAP1GAP2 under “z-score, replicate C”: 0.81
Value for TBC1D3B under “z-score, replicate A”: 2.61 (active)
For “z-score, replicate B”, C11orf65 shows -0.26

Additional records follow.
mean z-score,"z-score, replicate A","z-score, replicate B","z-score, replicate C",gene symbol,pool no.
0.29,0.18,0.46,0.23,ATP2B1-AS1,1
0.36,-0.04,0.47,0.64,ATOH1,1
-0.58,-0.42,-0.78,-0.56,LOXHD1,1
2.43 (active),2.54,2.15,2.59,LOXL3,1
0.15,0.23,-0.01,0.22,CPE,1
0.92,0.88,1.18,0.7,BHMT2,1
0.13,0.06,0.41,-0.08,ECPAS,1
-0.1,-0.4,0.18,-0.07,PDIA4,1
0.92,1.02,0.56,1.19,HTN1,1
-0.24,-0.13,-0.15,-0.42,FBXO40,1
0.74,0.66,0.8,0.78,MAPRE2,1
-0.22,0.01,0.05,-0.71,RPL7P47,1
0.44,0.29,0.41,0.62,PCMT1,1
-0.77,-1.01,-0.8,-0.5,AQP12B,1
1.66,1.79,1.5,1.68,CCDC88A,1
-0.39,-0.98,-0.06,-0.14,CCDC88A,2
-1.56,-1.33,-1.83,-1.52,THRA,1
0.97,0.98,1.03,0.89,PARVA,1
-0.14,-0.4,-0.12,0.11,SIRT2,1
-1.15,-1.35,-1.19,-0.91,PSMD3,1
-0.45,-0.55,-0.42,-0.37,NES,1
0.25,0.2,0.41,0.15,SLC9A7,1
0.36,0.63,0.07,0.38,FBXO45,1
-0.96,-1.16,-0.79,-0.94,PTCHD3,1
0.12,0.08,0.06,0.22,TFPI2,1
-0.6,-0.33,-0.81,-0.67,TRAPPC6A,1
-0.2,-0.32,-0.2,-0.09,TSPAN3,1
0.69,0.45,0.4,1.21,CALCA,1
-0.37,-0.46,-0.14,-0.51,FCN3,1
-0.11,0.42,-0.34,-0.4,NHLRC1,1
0.32,0.43,0.22,0.3,LIM2,1
0.06,0.03,0,0.15,TRPS1,1
0.79,0.79,0.65,0.92,TMEM41B,1
1.57,1.48,1.44,1.8,FBXL19-AS1,1
-0.65,-0.65,-0.49,-0.81,TJAP1,1
0.22,0.31,0.06,0.28,CPS1,1
0.2,0.15,0.25,0.2,WNT6,1
0.32,0.1,0.24,0.61,ZFHX3,1
0.8,0.77,0.7,0.94,ZFHX3,2
0.53,0.52,0.58,0.48,NFATC4,1
-0.13,-0.22,-0.1,-0.08,OTX2,1
-0.25,-0.31,-0.16,-0.27,ZBTB9,1
-1.4,-0.93,-1.64,-1.64,ADAMTS7,1
0.36,0.16,0.45,0.48,DLL3,1
1.17,1.09,1.27,1.16,NUP50,1
